{"sequences": {"note": "Protein sequences, listed by entry. Tags and fused reporters are not part of them. Residues count along the entry.", "UniProt Q9NYK1, 27-1049 limits assumed": "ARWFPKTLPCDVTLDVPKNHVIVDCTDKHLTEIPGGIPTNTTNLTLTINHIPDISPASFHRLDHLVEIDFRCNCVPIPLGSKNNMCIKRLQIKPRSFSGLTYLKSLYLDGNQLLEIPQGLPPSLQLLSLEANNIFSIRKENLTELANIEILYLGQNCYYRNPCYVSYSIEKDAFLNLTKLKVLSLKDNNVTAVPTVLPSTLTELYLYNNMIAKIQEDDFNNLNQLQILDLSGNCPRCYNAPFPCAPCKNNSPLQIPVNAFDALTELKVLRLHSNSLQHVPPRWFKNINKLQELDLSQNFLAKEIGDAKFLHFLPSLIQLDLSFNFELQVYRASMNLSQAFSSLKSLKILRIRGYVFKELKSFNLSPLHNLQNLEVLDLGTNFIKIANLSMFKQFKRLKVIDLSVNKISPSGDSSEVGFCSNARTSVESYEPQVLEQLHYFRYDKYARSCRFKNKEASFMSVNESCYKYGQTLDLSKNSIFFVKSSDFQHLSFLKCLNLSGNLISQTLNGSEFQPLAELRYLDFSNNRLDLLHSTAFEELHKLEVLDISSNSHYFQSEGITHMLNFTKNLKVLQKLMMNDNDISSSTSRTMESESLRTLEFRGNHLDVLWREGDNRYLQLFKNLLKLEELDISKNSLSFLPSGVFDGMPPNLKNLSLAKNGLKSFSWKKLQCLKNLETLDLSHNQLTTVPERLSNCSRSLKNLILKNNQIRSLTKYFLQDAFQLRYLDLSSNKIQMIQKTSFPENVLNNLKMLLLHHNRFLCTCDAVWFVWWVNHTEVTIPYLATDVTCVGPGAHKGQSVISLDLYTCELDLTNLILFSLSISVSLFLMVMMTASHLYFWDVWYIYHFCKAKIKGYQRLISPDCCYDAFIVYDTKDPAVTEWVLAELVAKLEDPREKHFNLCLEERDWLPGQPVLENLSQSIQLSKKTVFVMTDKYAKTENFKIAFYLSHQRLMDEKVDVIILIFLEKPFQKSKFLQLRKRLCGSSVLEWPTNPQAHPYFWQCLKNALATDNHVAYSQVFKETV"}, "source": "patent US7691877B2", "about": "“Pharmaceuticals” (priority 2006, dated 2010)", "biological_target": "TLR7 receptor (Homo sapiens, UniProt Q9NYK1)", "test": "PBL/HCV replicon bioassay", "format": "cell-based", "settings": "concentration applied to PBL (24 h) giving 50% reduction of HCV replicon levels (luciferase) after transfer of PBL culture medium to Huh-7 replicon cells (48 h)", "data": [{"smiles": "Cc1cc2c([nH]c(=O)n2Cc2ccc(F)cc2)c(N)n1", "values": [{"measurement": "EC50", "result": 926, "unit": "nM"}]}]}
